{"source": "patent US5356796A", "about": "“Repressor protein and operon for regulating expression of polypeptides and its use in the preparation of 2,2-dialkyglycine decarboxylase of Pseudomonas cepacia” (priority 1992, dated 1994)", "target": "DgdR (2,2-dialkylglycine decarboxylase repressor, LysR family) (Pseudomonas cepacia) (UniProt P16931)", "assay": "EMSA", "details": "protein in a lysate after overexpression", "note": "Construct, isoform or probe ends are uncertain for at least one entry. Results from cells or extracts need not show a direct contact."}
{"sequence": "GCCGAGGTGCGCGCGCTCAGCGCGGC (double strand) [179 bp SalI fragment of the 367 bp product (contains O2)]", "values": [{"measurement": "binding result", "setting": "single shifted band after SalI digestion, only the site is given", "value": "binds"}]}
{"sequence": "GCCGAGGTGCGCGCGCTCAGCGCGGC (double strand) [507 bp SalI fragment of the 788 bp product (contains O2)]", "values": [{"measurement": "binding result", "setting": "single shifted band stated, DNA Binding Assays paragraph says only the 179 bp fragment shifted, only the site is …", "value": "binds"}]}
{"sequence": "GCCGAGGTGCGCGCGCTCAGCGCGGCCGCGCTGCTGCTCAGCACCGGCGCG (double strand)", "values": [{"measurement": "binding result", "setting": "only the site is given", "value": "binds"}]}
{"sequence": "GCCGAGGTGCGCGCGCTCAGCGCGGC (double strand)", "values": [{"measurement": "binding result", "setting": "single shifted band, 1 ug extract, 50 ng DNA, 10 mM Tris pH 7.6, room temp, not affected by 20 mM 2-methylalanine, only the site is given", "value": "binds"}]}
